Data from patent US20150030667A1, “COMPOSITIONS AND METHODS FOR TREATING U[…]” (priority 2013, published 2015).

System: bladder (detrusor) contractility of BoNT treated rats
Conditions: rat, in vivo

CN(C)C(=O)Oc1cccc([N+](C)(C)C)c1 [neostigmine]
detrusor contractility during the filling phase: do not show increased
